The series in a line: activity coefficient (dimensionless); xn = mol fraction of the nth substance listed. Particulars: 101.33 kPa, Liquid, Chromatography, x1 = 0.

Each structure is given as a SMILES string. ± gives the expanded uncertainty stated by the source.

For the compound `CCC(C)(C)OC` [2-methoxy-2-methylbutane] + CCCCCCCC[N+](CC)(CC)CC.O=S(=O)(F)[N-]S(=O)(=O)F, the activity coefficient is, setting by setting: (318.15 K) 2.53 ± 0.17; (328.15 K) 2.65 ± 0.18; (338.15 K) 2.76 ± 0.19; (348.15 K) 2.87 ± 0.2; (358.15 K) 2.99 ± 0.2; (368.15 K) 3.1 ± 0.21.
Regarding `CCOCC` [diethyl ether] + CCCC[N+]1(C)CCCC1.O=S(=O)(F)[N-]S(=O)(=O)F, the activity coefficient turned out to be 3.6 ± 0.25 (318.15 K); 3.78 ± 0.26 (328.15 K); 3.96 ± 0.27 (338.15 K); 4.14 ± 0.28 (348.15 K); 4.32 ± 0.29 (358.15 K); 4.49 ± 0.31 (368.15 K).
Consider `CCOC(C)=O` [ethyl acetate] + CCCC[N+]1(C)CCCC1.O=S(=O)(F)[N-]S(=O)(=O)F, for which the activity coefficient was 1.32 ± 0.09 (318.15 K); 1.4 ± 0.09 (328.15 K); 1.48 ± 0.1 (338.15 K); 1.56 ± 0.1 (348.15 K); 1.64 ± 0.11 (358.15 K); 1.72 ± 0.12 (368.15 K).
Turning to `C1CCOC1` [tetrahydrofuran] + CCCC[N+]1(C)CCCC1.O=S(=O)(F)[N-]S(=O)(=O)F, the activity coefficient was 0.92 ± 0.058 (318.15 K); 0.981 ± 0.062 (328.15 K); 1.04 ± 0.07 (338.15 K); 1.11 ± 0.07 (348.15 K); 1.17 ± 0.07 (358.15 K); 1.24 ± 0.08 (368.15 K).
For `CCCC=O` [butanal] + CCCCCCCC[N+](CC)(CC)CC.O=S(=O)(F)[N-]S(=O)(=O)F, the activity coefficient came out at 0.663 ± 0.045 (318.15 K); 0.699 ± 0.047 (328.15 K); 0.738 ± 0.049 (338.15 K); 0.776 ± 0.051 (348.15 K); 0.815 ± 0.053 (358.15 K); 0.851 ± 0.055 (368.15 K).
Regarding `C=C(C)c1ccccc1` [(1-methylethenyl)benzene] + CCCCCCCC[N+](CC)(CC)CC.O=S(=O)(F)[N-]S(=O)(=O)F, the activity coefficient (318.15 K) amounted to 0.868 ± 0.055; the activity coefficient (328.15 K) was 0.955 ± 0.06; the activity coefficient (338.15 K) was determined as 1.04 ± 0.07; the activity coefficient (348.15 K) was 1.14 ± 0.07; the activity coefficient (358.15 K) amounted to 1.23 ± 0.08; the activity coefficient (368.15 K) worked out at 1.33 ± 0.09.
`C1CCCCCCC1` [cyclooctane] + CCCC[N+]1(C)CCCC1.O=S(=O)(F)[N-]S(=O)(=O)F: the activity coefficient reads like this: (318.15 K) 22.7 ± 1.6; (328.15 K) 21.8 ± 1.5; (338.15 K) 21 ± 1.4; (348.15 K) 20.3 ± 1.4; (358.15 K) 19.7 ± 1.3; (368.15 K) 19.2 ± 1.3.
As to `CCC(C)O` (stereo unspecified) [butan-2-ol] + CCCC[N+]1(C)CCCC1.O=S(=O)(F)[N-]S(=O)(=O)F, the activity coefficient is, setting by setting: (318.15 K) 3.05 ± 0.21; (328.15 K) 2.89 ± 0.2; (338.15 K) 2.74 ± 0.19; (348.15 K) 2.62 ± 0.18; (358.15 K) 2.51 ± 0.17; (368.15 K) 2.41 ± 0.16.
On to `COC(C)=O` [methyl ethanoate] + CCCC[N+]1(C)CCCC1.O=S(=O)(F)[N-]S(=O)(=O)F, for which the activity coefficient reads like this: (318.15 K) 0.967 ± 0.061; (328.15 K) 1.03 ± 0.06; (338.15 K) 1.09 ± 0.07; (348.15 K) 1.15 ± 0.07; (358.15 K) 1.21 ± 0.08; (368.15 K) 1.27 ± 0.08.
Turning to `CO` [methanol] + CCCC[N+]1(C)CCCC1.O=S(=O)(F)[N-]S(=O)(=O)F, the activity coefficient by setting is: (318.15 K) 1.83 ± 0.12; (328.15 K) 1.75 ± 0.12; (338.15 K) 1.67 ± 0.11; (348.15 K) 1.6 ± 0.11; (358.15 K) 1.54 ± 0.1; (368.15 K) 1.48 ± 0.1.
Consider `CCC(=O)CC` [pentan-3-one] + CCCCCCCC[N+](CC)(CC)CC.O=S(=O)(F)[N-]S(=O)(=O)F, for which the activity coefficient (318.15 K) was found to be 0.653 ± 0.045; the activity coefficient (328.15 K) is 0.699 ± 0.047; the activity coefficient (338.15 K) was 0.744 ± 0.049; the activity coefficient (348.15 K) was determined as 0.79 ± 0.051; the activity coefficient (358.15 K) was 0.837 ± 0.054; the activity coefficient (368.15 K) was found to be 0.881 ± 0.056.
`CC(C)CO` [2-methyl-1-propanol] + CCCCCCCC[N+](CC)(CC)CC.O=S(=O)(F)[N-]S(=O)(=O)F: the activity coefficient is 2.46 ± 0.17 (318.15 K); 2.31 ± 0.16 (328.15 K); 2.18 ± 0.15 (338.15 K); 2.06 ± 0.14 (348.15 K); 1.95 ± 0.13 (358.15 K); 1.86 ± 0.13 (368.15 K).
`CCCc1ccccc1` [propylbenzene] + CCCCCCCC[N+](CC)(CC)CC.O=S(=O)(F)[N-]S(=O)(=O)F: the activity coefficient reads like this: (318.15 K) 1.53 ± 0.1; (328.15 K) 1.63 ± 0.11; (338.15 K) 1.73 ± 0.12; (348.15 K) 1.83 ± 0.12; (358.15 K) 1.92 ± 0.13; (368.15 K) 2.01 ± 0.14.
With `c1ccccc1` [benzene] + CCCCCCCC[N+](CC)(CC)CC.O=S(=O)(F)[N-]S(=O)(=O)F, the activity coefficient amounted to 0.634 ± 0.044 (318.15 K); 0.676 ± 0.046 (328.15 K); 0.718 ± 0.048 (338.15 K); 0.761 ± 0.05 (348.15 K); 0.804 ± 0.052 (358.15 K); 0.847 ± 0.054 (368.15 K).
In the case of `CC(C)(C)O` [2-methylpropan-2-ol] + CCCCCCCC[N+](CC)(CC)CC.O=S(=O)(F)[N-]S(=O)(=O)F, the activity coefficient runs as follows: (318.15 K) 1.88 ± 0.13; (328.15 K) 1.82 ± 0.12; (338.15 K) 1.76 ± 0.12; (348.15 K) 1.71 ± 0.11; (358.15 K) 1.66 ± 0.11; (368.15 K) 1.62 ± 0.11.
In the case of `Cc1ccc(C)cc1` [1,4-dimethylbenzene] + CCCC[N+]1(C)CCCC1.O=S(=O)(F)[N-]S(=O)(=O)F, the activity coefficient reads like this: (318.15 K) 2.07 ± 0.14; (328.15 K) 2.22 ± 0.15; (338.15 K) 2.36 ± 0.16; (348.15 K) 2.5 ± 0.17; (358.15 K) 2.64 ± 0.18; (368.15 K) 2.77 ± 0.19.
Regarding `c1ccccc1` [benzene] + CCCC[N+]1(C)CCCC1.O=S(=O)(F)[N-]S(=O)(=O)F, the activity coefficient turned out to be 1.07 ± 0.07 (318.15 K); 1.14 ± 0.07 (328.15 K); 1.21 ± 0.08 (338.15 K); 1.28 ± 0.08 (348.15 K); 1.35 ± 0.09 (358.15 K); 1.42 ± 0.09 (368.15 K).
As to `CCCCCCC` [heptane] + CCCC[N+]1(C)CCCC1.O=S(=O)(F)[N-]S(=O)(=O)F, the activity coefficient runs as follows: (318.15 K) 40.5 ± 2.8; (328.15 K) 38.9 ± 2.7; (338.15 K) 37.4 ± 2.6; (348.15 K) 36 ± 2.5; (358.15 K) 34.8 ± 2.4; (368.15 K) 33.9 ± 2.3.
Consider `C#CCCCCCC` [1-octyne] + CCCCCCCC[N+](CC)(CC)CC.O=S(=O)(F)[N-]S(=O)(=O)F, for which the activity coefficient by setting is: (318.15 K) 3 ± 0.2; (328.15 K) 3.16 ± 0.22; (338.15 K) 3.31 ± 0.23; (348.15 K) 3.47 ± 0.24; (358.15 K) 3.61 ± 0.25; (368.15 K) 3.76 ± 0.26.
In the case of `CC#N` [acetonitrile] + CCCCCCCC[N+](CC)(CC)CC.O=S(=O)(F)[N-]S(=O)(=O)F, the activity coefficient was determined as 0.535 ± 0.039 (318.15 K); 0.554 ± 0.04 (328.15 K); 0.572 ± 0.041 (338.15 K); 0.59 ± 0.042 (348.15 K); 0.607 ± 0.042 (358.15 K); 0.624 ± 0.043 (368.15 K).
Take `Cc1ccccc1C` [1,2-dimethylbenzene] + CCCC[N+]1(C)CCCC1.O=S(=O)(F)[N-]S(=O)(=O)F: the activity coefficient is 1.85 ± 0.12 (318.15 K); 1.96 ± 0.13 (328.15 K); 2.08 ± 0.14 (338.15 K); 2.19 ± 0.15 (348.15 K); 2.31 ± 0.16 (358.15 K); 2.42 ± 0.16 (368.15 K).
Take `C1COCCO1` [1,4-dioxane] + CCCCCCCC[N+](CC)(CC)CC.O=S(=O)(F)[N-]S(=O)(=O)F: the activity coefficient is, setting by setting: (318.15 K) 0.56 ± 0.04; (328.15 K) 0.6 ± 0.042; (338.15 K) 0.642 ± 0.044; (348.15 K) 0.683 ± 0.046; (358.15 K) 0.724 ± 0.048; (368.15 K) 0.765 ± 0.05.
As to `CCCCCO` [pentan-1-ol] + CCCCCCCC[N+](CC)(CC)CC.O=S(=O)(F)[N-]S(=O)(=O)F, the activity coefficient is, setting by setting: (318.15 K) 2.73 ± 0.19; (328.15 K) 2.58 ± 0.18; (338.15 K) 2.46 ± 0.17; (348.15 K) 2.34 ± 0.16; (358.15 K) 2.24 ± 0.15; (368.15 K) 2.15 ± 0.15.
With `C1CCCCCC1` [cycloheptane] + CCCC[N+]1(C)CCCC1.O=S(=O)(F)[N-]S(=O)(=O)F, the activity coefficient was 17.3 ± 1.2 (318.15 K); 16.8 ± 1.1 (328.15 K); 16.3 ± 1.1 (338.15 K); 16 ± 1.1 (348.15 K); 15.6 ± 1.1 (358.15 K); 15.3 ± 1 (368.15 K).
As to `CCCCCC` [hexane] + CCCCCCCC[N+](CC)(CC)CC.O=S(=O)(F)[N-]S(=O)(=O)F, the activity coefficient reads like this: (318.15 K) 8.96 ± 0.61; (328.15 K) 8.92 ± 0.61; (338.15 K) 8.88 ± 0.61; (348.15 K) 8.84 ± 0.6; (358.15 K) 8.8 ± 0.6; (368.15 K) 8.76 ± 0.6.
In the case of `CC(C)(C)O` [2-methylpropan-2-ol] + CCCC[N+]1(C)CCCC1.O=S(=O)(F)[N-]S(=O)(=O)F, the activity coefficient runs as follows: (318.15 K) 2.57 ± 0.17; (328.15 K) 2.46 ± 0.17; (338.15 K) 2.37 ± 0.16; (348.15 K) 2.27 ± 0.15; (358.15 K) 2.2 ± 0.15; (368.15 K) 2.12 ± 0.14.

(Values after the NIST ThermoML archive (doi:10.1016/j.jct.2018.07.024).)
